Pooled drug test results. Numbers come from NIAID ChemDB, via PubChem.

All rows: cytotoxicity tests; read-out: CC50

Conditions beyond the fields shown may differ between rows. Blank or dashed fields: not listed here. CCn: concentration that lowers growth or viability of the cells by n%.

structure,read by,cell line,value
COC(=O)c1cnc2c(c1)c(O)c(C(=O)NCc1ccccc1)c(=O)n2O,,HeLa,<100 µM
C=C(C)C1CC[C@]2(C(=O)O)CC[C@@]3(C)[C@]4(C)CC[C@H]5C(C)(C)[C@@H](OC(=O)/C=C\c6ccc(O)cc6)CC[C@]5(C)[C@H]4CC[C@]3(C)[C@@H]12,MTT,L6 cells,5.6 µM
CCSc1n[nH]c(-c2ccc([N+](=O)[O-])c(C)c2)n1,,Panc-1,>100 µg/mL
Oc1[nH]c2ccccc2c1N=NC(=S)N1CCOCC1,,hRD,>25 µM
S=C(NCCc1ccccc1)Nc1cccc(OCCCCCc2ccccc2)c1,MTS,Ava5-EG(delta4AB)SEAP,>1 µM
O=c1oc2ccccc2cc1CNc1ccc(Br)cc1Cl,MTS,Ava5,152 µM
O=c1cc(OCc2ccc(Cl)cc2)oc2ccc(OCc3cccc(Cl)c3)c(O)c12,MTT,Hs27,>50 µM
CN=C(N)c1ccc(N2CCN(c3ccc(C(N)=NC)cc3)CC2)cc1,,A549,>100 µg/mL
COc1cc(C)c2c(-c3ccccc3)c(OC)cc(NC(C)CCCN)c2n1,,RAW 264.7,1.9 µg/mL
CCOC(=O)c1c(N)c2cccnc2n(O)c1=O,,HeLa,<100 µM
CCN(CC)CCN1C(=O)c2ccccc2NC1c1ccc(OC)c(COc2ccc(NC(C)=O)cc2)c1,luminescence,HepG2 cells,>20 µM
Cc1cccc(C)c1N(CC(=O)Nc1ccc(-c2ncon2)cc1)C(=O)C1CCS(=O)(=O)CC1,MTT,HEF,>30 µM
CCN(CC)CCN1C(=O)c2ccccc2NC1c1ccc(Cl)cc1,luminescence,HepG2 cells,>20 µM
CCSc1n[nH]c(-c2cccc(C(F)(F)F)c2)n1,,Panc-1,>100 µg/mL
NC(=Nc1ccccc1)c1ccc(N2CCN(c3ccc(C(N)=Nc4ccccc4)cc3)CC2)cc1,,WI-38,>11.6 µg/mL
CN(Cc1nc2ccccc2[nH]1)Cc1ncccc1CCCNC(=O)OC(C)(C)C,MTT,C8166,>10 µM
CCCCc1nc2cc(/C=C/C(=O)NO)ccc2n1CCN(CC)CC,sulforhodamine,NFF cells,1.5 µM
CCCCCCCCN=C(N)c1ccc(N2CCN(c3ccc(C(N)=NCCCCCCCC)cc3)CC2)cc1,,A549,2.26 µg/mL
Cc1cc(C)cc(NC(=O)NOCCCCCC(=O)NO)c1,sulforhodamine,NFF cells,7.7 µM
CN1CCN(c2ccnc3nc(CN(CCCCN)Cc4ncc(Cl)cc4Cl)[nH]c23)CC1,MTT,C8166,>10 µM
O=c1c(Cc2ccccc2)c(O)c2cc(-c3ccccc3)cnc2n1O,,HeLa,<100 µM
COc1ccc2c(c1)C[C@@H]1C[C@]1(C(=O)N1C[C@H]3CC[C@@H](C1)CN(S(=O)(=O)C(C)C)C3)Cn1c-2c(C2CCCCC2)c2ccc(C(=O)NS(=O)(=O)N(C)C)cc21,resazurin / fluorescence,HCV replicon cells,5 µM
NC(=S)Nc1cccc(OCCCCCCCOc2cccc3ccccc23)c1,MTS,Ava5-EG(delta4AB)SEAP,>1 µM
CN[C@@H]1[C@H](O[C@@H]2OC[C@@H](O)[C@H](O)[C@H]2O)[C@@H](O)[C@H](O[C@H]2c3cc(C)c(C(=O)N[C@H](C)C(=O)O)c(O)c3-c3c(cc4c(c3O)C(=O)c3cc(OC)cc(O)c3C4=O)[C@@H]2O)O[C@@H]1C,MTS,CD4+ T-cell,>100 µM
C=CCSc1n[nH]c(-c2cccc([N+](=O)[O-])c2C)n1,,Panc-1,>100 µg/mL
CCN(CC)CCN1C(=O)c2ccccc2NC1c1cc(OC)c(OC)c(OC)c1,luminescence,HepG2 cells,>20 µM
O=c1cc(OCc2ccc(I)cc2)oc2ccc(OCc3cccc(Cl)c3)c(O)c12,MTT,Hs27,>50 µM
CCN1C(=O)Cc2cc(C(=O)CN3CCN(c4noc5cc(Cl)ccc45)CC3)ccc21,MTT,RAW 264.7,78.81 µg/mL
NC(=S)Nc1ccc2c(c1)Cc1cc(NCc3ccccc3)ccc1-2,MTS,Ava5-EG(delta4AB)SEAP,>1 µM
Oc1c(N=NC(=S)Nc2ccccc2)c2ccccc2n1Cc1ccccc1,,RD,>25 µM
CN(Cc1nc2ccccc2[nH]1)Cc1ncccc1CCCNC(=O)Cc1ccc(F)cc1,MTT,C8166,10 µM
CNC(=S)N=Nc1c(O)[nH]c2ccccc12,,hRD,>25 µM
NC(=S)Nc1cccc(OCCCCCOc2cccc(-c3ccccc3)c2)c1,MTS,Ava5-EG(delta4AB)SEAP,>1 µM
CNC[C@@H](Cc1ccc2ccccc2c1)NC[C@H](Cc1ccc2ccccc2c1)NCC1(c2ccccc2)CC1,,KB cells,1.77 µg/mL
Nc1nc(N)c2cc3c(ccc4ccccc43)nc2n1,MTT,SK-5,6.3 µM
COc1cc(C)c2c(-c3ccc(C(F)(F)F)cc3)c(OC)cc(NC(C)CCCN)c2n1,,RAW 264.7,1.2 µg/mL
Oc1[nH]c2ccccc2c1N=NC(=S)Nc1ccc(F)cc1,,hRD,>25 µM
O=C(CCCCCONC(=O)Nc1ccc(-c2ccccc2)cc1)NO,sulforhodamine,NFF cells,7.9 µM
CCN1C(=O)Cc2cc(C(=O)CN3CCN(c4ccccn4)CC3)ccc21,MTT,RAW 264.7,94.26 µg/mL
COc1cc(O)c2c(c1)C(=O)C(CC(C)=O)=C(C)C2=O,MTT,SupT1,94.3 µg/mL
C=C(C)C1CC[C@]2(C(=O)O)CC[C@@]3(C)[C@]4(C)CC[C@H]5C(C)(C)[C@@H](OC(=O)/C=C/c6ccc(O)cc6)CC[C@]5(C)[C@H]4CC[C@]3(C)[C@@H]12,MTT,L6 cells,9.3 µM
Cc1ccc(-n2ncc3c(=O)[nH]c(SCC(=O)c4ccc(Cl)cc4)nc32)cc1,MTT,MT-2 human T-cells,>100 µM
NC(=S)Nc1cccc(OCCCCCOc2ccc(Cl)c3ccccc23)c1,MTS,Ava5-EG(delta4AB)SEAP,>1 µM
O=c1oc2ccccc2cc1CNc1cc([N+](=O)[O-])cc([N+](=O)[O-])c1,MTS,Ava5,173 µM
COc1ccc2c(c1)C[C@@H]1C[C@]1(C(=O)N1C[C@H]3CC[C@@H](C1)CN(S(=O)(=O)C(C)C)C3)Cn1c-2c(C2CCCCC2)c2ccc(C(=O)NS(=O)(=O)C(C)C)cc21,resazurin / fluorescence,HCV replicon cells,10 µM
NC(=S)Nc1ccc(OCCCCCOc2ccccc2)cc1,MTS,Ava5-EG(delta4AB)SEAP,>1 µM
Oc1c(N=NC(=S)Nc2ccccc2)c2ccccc2n1-c1ccccc1,,hRD,>25 µM
CC1C(=O)N(C)c2ccc(C(=O)CN3CCN(c4noc5ccccc45)CC3)cc21,MTT,RAW 264.7,110 µg/mL
CCC(C)n1ncn(-c2ccc(N3CCN(c4ccc(OC[C@H]5CO[C@](Cn6cncn6)(c6ccc(Cl)cc6Cl)O5)cc4)CC3)cc2)c1=O,MTT,293T,>400 µM
COC1=CC(=O)c2c(O)c(C)c3c(c2C1=O)OC(C)C3,MTT,Panc-1,97.6 µg/mL
C=CCSc1n[nH]c(-c2cccc(C(F)(F)F)c2)n1,,Panc-1,>100 µg/mL
CCN(CC)CCN1C(=O)c2ccccc2NC1c1ccc(N(C)C)cc1,luminescence,HepG2 cells,>30 µM
C[C@H](NP(=O)(OC[C@H]1O[C@@H](n2cc(I)c(=O)[nH]c2=O)C(F)(F)[C@@H]1O)Oc1ccccc1)C(=O)OCc1ccccc1,MTS,CrFK,>70 µM
Cn1cncc1C(=O)c1nccc2c1[nH]c1ccccc12,,A-594,>5 µg/mL
CCN1C(=O)C(C)c2cc(C(=O)CN3CCN(c4noc5ccccc45)CC3)ccc21,MTT,RAW 264.7,68.56 µg/mL
Nc1nc(N)c2cc3c(nc2n1)CCc1ccccc1-3,MTT,PC-3,8.4 µM
CN1C(=O)c2c(c3cccnc3n(O)c2=O)NC1c1cccc(CN)c1,,HeLa,<100 µM
CCn1c(O)c(N=NC(=S)Nc2ccccc2)c2ccccc21,,RD,>25 µM
COc1ccc(NCc2cc3ccccc3oc2=O)cc1,MTS,Ava5,110 µM
CCOC(=O)c1c(O)c2cc(C(=O)N(C)Cc3ccccc3)cnc2n(O)c1=O,,HeLa,<100 µM
CC1C(=O)N(C)c2ccc(C(=O)CN3CCN(c4noc5c(Cl)cccc45)CC3)cc21,MTT,RAW 264.7,86.44 µg/mL
Nc1nc2c(ncn2CC[C@@H](CO)OCP(=O)(O)O)c(=O)[nH]1,,MRS-5,10 µg/mL
CCNC(=S)N=Nc1c(O)[nH]c2ccccc12,,hRD,>25 µM
CCOC(=O)c1ccc(-c2ccc([N+](=O)[O-])cc2)nc1C,MTT,L6 cells,27 µM
CCCc1cc(=O)[nH]c(SC(C)C(=O)Nc2cccc(Cl)c2)n1,MTT,MT-2 human T-cells,53 µM
O=C1c2ccccc2NC(c2ccc(Br)cc2)N1c1ccco1,luminescence,HepG2 cells,>20 µM
O=c1oc2ccccc2cc1CNc1cccc(O)c1,MTS,Ava5,200 µM
N#Cc1nc(Cc2cccc3ccccc23)oc1NCC1CCCO1,MTT,MT-2 human T-cells,37 µM
CCCCN1C(=O)c2ccccc2NC1c1ccc(F)cc1,luminescence,HepG2 cells,>20 µM
COc1cc(NC(C)CCCNC(=O)OC(C)(C)C)c2nc(C(F)(F)F)cc(C)c2c1-c1ccccc1C,,RAW 264.7,>48 µg/mL
C[C@H](NP(=O)(OC[C@H]1O[C@@H](n2cc(Br)c(=O)[nH]c2=O)C(F)(F)[C@@H]1O)Oc1ccccc1)C(=O)OCc1ccccc1,MTS,CrFK,>100 µM
c1cc(N2CCN(c3ccc(C4=NCCCN4)cc3)CC2)ccc1C1=NCCCN1,,A549,163.3 µg/mL
CC(C)C[C@@H]1NC(=O)[C@H](Cc2c[nH]c3ccccc23)NC(=O)[C@@H](CCCN)NC(=O)[C@H](CC(=O)NCC2CCCCC2)NC(=O)[C@H](C(C)C)NC(=O)[C@@H](CC(C)C)NC1=O,luminescence,Hep2G,39.8 µM
Nc1ccn(CC[C@@H](CO)OCP(=O)(O)O)c(=O)n1,,MRS-5,>100 µg/mL
CN1CCN(c2ccnc3nc(CN(C)Cc4ncccc4-c4ccccc4)[nH]c23)CC1,MTT,C8166,>10 µM
CCc1nc2cc3ccccc3cc2cc1C(=O)N[C@@H](C/C=C\C[C@H](NC(=O)c1cc2cc3ccccc3cc2nc1CC)C(=O)N1CCC[C@H]1C(=O)N[C@@H](Cc1ccccc1)C(=O)NCCCN)C(=O)N1CCC[C@H]1C(=O)N[C@@H](Cc1ccccc1)C(=O)NCCCN,WST,HEK293T,≥60 µM
Cc1ccc(OCCn2ccc(=O)[nH]c2=O)c(Cc2ccccc2)c1,MTT,MT-2 human T-cells,43 µM
COC1=CC(=O)c2c(O)c3c(c(O)c2C1=O)CC(C)(O)OC3,MTT,MDA-MB-231,1.8 µg/mL
CCCCCCCCCCN=C(N)c1ccc(N2CCN(c3ccc(C(N)=NCCCCCCCCCC)cc3)CC2)cc1,,A549,>71 µg/mL